Measured values from several laboratories, pooled; numbers as filed in NIAID ChemDB.

All rows: growth or infection tests

An empty or dashed field is not shown.

SMILES	agent	method	tested at	cell line	strain	read-out	value
Cc1cccc(CON2CNc3c(ncn3[C@@H]3O[C@H](CO)[C@@H](O)[C@H]3O)C2=N)c1	Influenza virus	cytopathic effect		MDCK	TYPE A0/PR8/34	EC50	100 µg/mL
[N-]=C=Nc1nncs1	Influenza A virus	virus yield	1 µg/mL	MDCK	Influenza A/Virginia/88 (H3N2)	inhibition	90%
C/C=C\[C@@H]1C[C@H](C(=O)O)N[C@H]1[C@@H](NC(C)=O)[C@](C)(CCC)OC	Influenza B virus	plaque count		MDCK	Isolate C29C	EC50	<0.01 µg/mL
CCOC(=O)c1nc2cc([N+](=O)[O-])ccc2[nH]c1=O	Influenza virus	plaque count		BSC-1/HELA	Maryland B	EC50	40 µg/mL
Nc1nc(Cl)c(N)c(NCC2(CO)CC(Cc3ccccc3)C2)n1	Influenza B virus	plaque count		MDCK	B/GIFU/2/73	EC50	0.17–0.23 µM
NC12CC3CC(CC(C3)C1)C2	Influenza B virus	plaque count	4.7 µg/mL	CEF	B/LEE	inhibition	0%
Nc1nc(Cl)cc(NC2(CO)CCC2)n1	Influenza B virus	plaque count		MDCK	B/GIFU/2/73	EC50	220 µM
CCC	Influenza A virus			MDCK	PORT chalmers/1/73 (H3)	EC50	>500 µM
Cc1cc(NCC2(CO)CCC2)nc(N)n1	Influenza B virus	plaque count		MDCK	B/GIFU/2/73	EC50	>140 µM
CC(=O)N[C@H]1[C@H]([C@H](O)[C@H](O)CO)OC(C(=O)O)=C[C@@H]1N=C(N)N	Influenza A virus	visual reading		MDCK	H1N1 A/NWS/33	EC50	60 µM
CC(N)C12CC3CC(CC(C3)C1)C2	Influenza A virus	ELISA		MDCK	Influenza A H3N2 isolate 152	EC50	14.3 µg/mL
Nc1ccn([C@@H]2C[C@H](CO)[C@@H](O)[C@H]2O)c(=O)n1	Influenza C virus	cytopathic effect		MDCK		EC50	4.5 µg/mL
CC(=O)N[C@H]1[C@H]([C@H](O)[C@H](O)CO)OC(C(=O)O)=C[C@@H]1N=C(N)N	Influenza A virus			MDCK	Influenza A/Washington/05/96 (H3N2)	EC50	0.2 µM
CCC(CC)(CO)CNc1cc(Cl)nc(N)n1	Influenza B virus	plaque count		MDCK	B/GIFU/2/73	EC50	120 µM
Cc1ccc(CON2CNc3c(ncn3[C@@H]3O[C@H](CO)[C@@H](O)[C@H]3O)C2=N)cc1	Influenza virus	cytopathic effect		MDCK	TYPE A0/PR8/34	EC50	100 µg/mL
Nc1ncc(Br)c(NCC2(CO)CC(CCc3ccccc3)C2)n1	Influenza B virus	plaque count		MDCK	B/GIFU/2/73	EC50	0.13–0.26 µM
CC(=O)N[C@H]1[C@H]([C@H](O)[C@H](O)CO)OC(C(=O)O)=C[C@@H]1N=C(N)N	Influenza A virus	virus yield	0.6 µM	MDCK	H3N2 A/AICHI/1168	inhibition	90%
CCCC(CCC)C(NC(C)=O)C1C(N=C(N)N)CC(C(=O)O)C1O	Influenza A virus			MDCK	H1N1 A/TEXAS/36/91	EC50	0.06 µM
Nc1nc(Cl)cc(NCCC2(CO)CCC2)n1	Influenza B virus	plaque count		MDCK	B/GIFU/2/73	EC50	>120 µM
Cc1ccccc1CO[n+]1cnc2c(ncn2[C@@H]2O[C@H](CO)[C@@H](O)[C@H]2O)c1N.F[B-](F)(F)F	Influenza virus	cytopathic effect		MDCK	TYPE A0/PR8/34	EC50	320 µg/mL

For reference, 2 entries again:

SMILES | agent | method | tested at | cell line | strain | read-out | value
[N-]=C=Nc1nncs1 | Influenza A virus | virus yield | 1 µg/mL | MDCK | Influenza A/Virginia/88 (H3N2) | inhibition | 90%
Cc1cccc(CON2CNc3c(ncn3[C@@H]3O[C@H](CO)[C@@H](O)[C@H]3O)C2=N)c1 | Influenza virus | cytopathic effect |  | MDCK | TYPE A0/PR8/34 | EC50 | 100 µg/mL

Rows are shuffled and stem from different studies. ECn is the concentration giving n% inhibition of infection, replication or growth. Percent inhibition refers to the dose given; in toxicity tests it is the harm to the cells. a–b is a range or a potency band.